Ratio CC50/IC50 data for nine compounds are collected here from ChEMBL document CHEMBL4706564 (Eur J Med Chem, 2020).

The nature of data set [1]: Selectivity index, ratio of CC50 for African green monkey Vero cells to IC50 for Zaire ebolavirus infected in African green monkey Vero cells.
The nature of data set [2]: Selectivity index, ratio of CC50 for human HEK293T cells to IC50 for glycoprotein in VSV-G pseudotyped EBOV Mayinga infected in human HEK293T cells.
A short description of data set [3]: Selectivity index, ratio of CC50 for African green monkey Vero cells to IC50 for MARV Popp infected in African green monkey Vero cells.

Molecules are shown by their SMILES.

For the compound `CC1CCN(CCC(=O)O[C@@H]2C[C@@H]3CC[C@@]2(C)C3(C)C)CC1`, the figures for the Ratio CC50/IC50 in data set [1], in data set [2] and in data set [3] were 1.3, 956 and 32, respectively.

On to `CCN1CCN(CCC(=O)O[C@@H]2C[C@@H]3CC[C@@]2(C)C3(C)C)CC1`, for which the Ratio CC50/IC50 in data set [2] stood at 170; in data set [3], 1.

`CC1(C)[C@H]2CC[C@]1(C)[C@H](OC(=O)CCN1CCCCC1)C2.Cl`: the figures for the Ratio CC50/IC50 in data set [1], in data set [2] and in data set [3] were 31, 112 and 15, respectively.

Take `CC1(C)[C@@H]2CC[C@@]1(C)[C@H](NC(=O)CCN1CCOCC1)C2`: in data set [2], the Ratio CC50/IC50 was 14.

As for `CC1(C)[C@H]2CC[C@]1(C)[C@H](OC(=O)CCN1CCCCC1)C2`, the Ratio CC50/IC50 is 9 in data set [1], 170 in data set [2] and 118 in data set [3].

For `CC1CCN(CCCC(=O)O[C@@H]2C[C@@H]3CC[C@@]2(C)C3(C)C)CC1`, the Ratio CC50/IC50 in data set [2] was 18.

As to `CN1CCN(CCCC(=O)O[C@@H]2C[C@@H]3CC[C@@]2(C)C3(C)C)CC1`, in data set [2], the Ratio CC50/IC50 came to 160.

On to `CC1CCN(CC(=O)N[C@@H]2C[C@H]3CC[C@]2(C)C3(C)C)CC1`, for which the Ratio CC50/IC50 in data set [2] turned out to be 2.9.

For the compound `CC1CCN(CCC(=O)O[C@@H]2C[C@@H]3CC[C@@]2(C)C3(C)C)CC1.Cl`, the Ratio CC50/IC50 is 2.2 in data set [1], 171 in data set [2] and 25 in data set [3].
